Reference: PubChem BioAssay AID624099 (ICCB-Longwood, 2012)
The deposit covers about 21,000 reagents; below is a part drawn at random. Over the whole deposit, 497 (2.4%) were called active. 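Higher z means weaker E2 silencing; only reporter increases were scored, and knock-downs that hurt cell survival may mask genuine repressor factors.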

- Screen: 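Human genes that papillomavirus E2 requires to repress the HPV18 LCR promoter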 (primary screen)
- System: human C33A cervical carcinoma cells (HPV-negative) stably expressing BPV1 E2 and an HPV18 LCR luciferase reporter
- Reagents: siRNA pool against human genes, 40 nM
- Timing: 72 h
- Read-out: 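HPV18 LCR reporter light per well, converted to plate-wise z-scores that exclude control wells, and averaged over triplicate plates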
- Reading the numbers: mean z-score and z-score: higher = stronger reporter signal, weaker E2 silencing
- Hit rule: 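Hit if mean z-score reaches 2 and two or more of three replicate z-scores also reach 2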

Knock-down of ADAM17 (ADAM metallopeptidase domain 17) resulted in: mean z-score 1.58; z-score, replicate A = 1.61; z-score, replicate B = 1.65; z-score, replicate C = 1.49; inactive. After knock-down of PPP1R15B (protein phosphatase 1 regulatory subunit 15B), the record shows mean z-score 1.15; z-score, replicate A = 1.26; z-score, replicate B = 1.18; z-score, replicate C = 1; inactive. Knock-down of BDNF (brain derived neurotrophic factor) resulted in: mean z-score 0.04; z-score, replicate A = 0.02; z-score, replicate B = -0.03; z-score, replicate C = 0.13; inactive. SENP3 (SUMO specific peptidase 3) showed mean z-score -0.08; z-score, replicate A = 0.07; z-score, replicate B = -0.2; z-score, replicate C = -0.1; inactive. For WDR54 (WD repeat domain 54), the entry reads mean z-score -0.98; z-score, replicate A = -1.1; z-score, replicate B = -1; z-score, replicate C = -0.84; inactive. PAFAH1B3 scored mean z-score 0.16; z-score, replicate A = -0.24; z-score, replicate B = 0.24; z-score, replicate C = 0.49; inactive.

CCDC61 (coiled-coil domain containing 61) gave mean z-score 1.14; z-score, replicate A = 1.2; z-score, replicate B = 1.21; z-score, replicate C = 1.01; inactive. Depletion of POC1B (POC1 centriolar protein B) resulted in: mean z-score 1.05; z-score, replicate A = 3.44; z-score, replicate B = -0.1; z-score, replicate C = -0.17; inactive. Against F13B (coagulation factor XIII B chain), the entry reads mean z-score 0.24; z-score, replicate A = 0.37; z-score, replicate B = 0.05; z-score, replicate C = 0.28; inactive. ASB12 (ankyrin repeat and SOCS box containing 12) scored mean z-score -0.72; z-score, replicate A = -0.97; z-score, replicate B = -0.43; z-score, replicate C = -0.76; inactive. RINL (Ras and Rab interactor like) showed mean z-score 0.17; z-score, replicate A = -0.18; z-score, replicate B = 0.13; z-score, replicate C = 0.54; inactive. With knock-down of CMSS1 (cms1 ribosomal small subunit homolog), the record shows mean z-score 0.31; z-score, replicate A = 0.19; z-score, replicate B = 0.09; z-score, replicate C = 0.65; inactive.

Depletion of STAT4 (signal transducer and activator of transcription 4) came out at: mean z-score -0.98; z-score, replicate A = -1.01; z-score, replicate B = -1.02; z-score, replicate C = -0.91; inactive. Knock-down of AOPEP (aminopeptidase O (putative)) gave: mean z-score -0.25; z-score, replicate A = -0.24; z-score, replicate B = -0.23; z-score, replicate C = -0.28; inactive. For OSR1 (odd-skipped related transcription factor 1), the entry reads mean z-score 0.98; z-score, replicate A = 0.85; z-score, replicate B = 0.88; z-score, replicate C = 1.23; inactive. Silencing of ZP2 (zona pellucida glycoprotein 2) gave: mean z-score 0.77; z-score, replicate A = 0.81; z-score, replicate B = 0.69; z-score, replicate C = 0.8; inactive. TRIM50 (tripartite motif containing 50) gave mean z-score -0.95; z-score, replicate A = -0.7; z-score, replicate B = -0.7; z-score, replicate C = -1.44; inactive. DCLRE1B (DNA cross-link repair 1B) showed mean z-score -0.05; z-score, replicate A = 0.21; z-score, replicate B = -0.05; z-score, replicate C = -0.32; inactive.

CUL2 (cullin 2) scored mean z-score -2.01; z-score, replicate A = -1.99; z-score, replicate B = -2; z-score, replicate C = -2.03; inactive. For DAPL1 (death associated protein like 1), the values are mean z-score 0.11; z-score, replicate A = -0.15; z-score, replicate B = 0.54; z-score, replicate C = -0.05; inactive. For TARBP1 (tRNA guanosine 2 -O-methyltransferase TARBP1), the entry reads mean z-score 0.39; z-score, replicate A = 0.3; z-score, replicate B = 0.41; z-score, replicate C = 0.45; inactive.

Not a retest: entries from further up.
SENP3 (SUMO specific peptidase 3) → mean z-score: -0.08; z-score, replicate A: 0.07; z-score, replicate B: -0.2; z-score, replicate C: -0.1; Call: inactive
WDR54 (WD repeat domain 54) → mean z-score: -0.98; z-score, replicate A: -1.1; z-score, replicate B: -1; z-score, replicate C: -0.84; Call: inactive
